# Reference: article PMC13507078
# For at least one entry, the source does not settle the construct or the ends of the probe. For some of these results: No signal at the amounts used counts as a negative. At least one verdict rests on a figure or table, not on a statement of the authors. For some of these results: Protein sequences can lack the tags named with them. For some of these results: Weaker means in comparison with the reference protein, sequence or condition of that experiment.
# Experiments:
# Experiment in all cases: EMSA
# [1] = biological target: T1, Af-PARP1 ΔBRCT (Aspergillus fumigatus) (UniProt B0Y3N8); conditions: EMSA: 50 mM HEPES pH 8, 100 mM NaCl, 10% glycerol, 10 mM DTT, 45 min at 4 °C, 7% native PAGE 0.5x TBE, recombinant protein
# T1 sequence (looked up, limits assumed): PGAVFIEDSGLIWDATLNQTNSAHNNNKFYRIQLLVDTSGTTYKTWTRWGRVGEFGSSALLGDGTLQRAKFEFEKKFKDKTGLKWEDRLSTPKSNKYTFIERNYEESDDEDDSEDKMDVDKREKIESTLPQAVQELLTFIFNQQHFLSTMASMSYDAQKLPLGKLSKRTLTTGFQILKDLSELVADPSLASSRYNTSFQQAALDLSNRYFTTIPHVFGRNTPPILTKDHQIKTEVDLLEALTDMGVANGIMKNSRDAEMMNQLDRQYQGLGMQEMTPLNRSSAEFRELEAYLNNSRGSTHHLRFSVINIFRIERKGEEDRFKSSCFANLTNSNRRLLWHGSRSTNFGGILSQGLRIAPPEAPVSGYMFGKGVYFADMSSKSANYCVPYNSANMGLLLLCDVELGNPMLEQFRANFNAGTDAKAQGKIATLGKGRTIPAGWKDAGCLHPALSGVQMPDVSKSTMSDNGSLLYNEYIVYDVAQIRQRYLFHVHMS
# [2] = tested on: Bd-PARP1 ΔBRCT (Batrachochytrium dendrobatidis JEL423); conditions: 5'-phosphate, EMSA: 50 mM HEPES pH 8, 100 mM NaCl, 10% glycerol, 10 mM DTT, 45 min at 4 °C, 7% native PAGE 0.5x TBE, recombinant protein, protein details: His, folded or branched DNA
# [3] = tested on: Bd-PARP1 WT (Batrachochytrium dendrobatidis JEL423); conditions: profile closely resembles Af-PARP1 WT; 5'-phosphate; EMSA: 50 mM HEPES pH 8, 100 mM NaCl, 10% glycerol, 10 mM DTT, 45 min at 4 °C, 7% native PAGE 0.5x TBE; recombinant protein; protein details: His; folded or branched DNA
# [4] = 5'-phosphate, folded or branched …
# [5] = 3'-phosphate, folded or branched …
sequence,measurement,setting,value
GGAAGTTCTTTTGAACTTCC [DNA-5 (5'P blunt)],binding result,[1]; [4],no binding
same,binding result,[2]; markedly reduced for blunt ends,binds more weakly
CGGTCGATCGTAAGATCGACCGTGCGCTGGAGCTTGCTCCAGCGC [DNA-2 (5'P gap)],binding result,[2]; markedly reduced for gap structures,binds more weakly
same,binding result,[3],binds
GCTAGGAAGTTCTTTTGAACTTCC [DNA-10 (3'P 5' overhang)],binding result,[1]; [5],no binding
GGAAGTTCTTTTGAACTTCC [DNA-4 (blunt)],binding result,[1]; folded or branched DNA,no binding
CGGTCGATCGTAAGATCGACCGTGCGCTGGAGCTTGCTCCAGCGC [DNA-3 (3'P gap)],binding result,[1]; [5],no binding
GGAAGTTCTTTTGAACTTCCTTGG [DNA-9 (5'P 3' overhang)],binding result,[1]; [4],no binding
same,binding result,[2]; markedly reduced for overhangs,binds more weakly
CGGTCGATCGTAAGATCGACCGGCGCTGGAGCTTGCTCCAGCGC [DNA-1 (5'P nick)],binding result,[3],binds
GGAAGTTCTTTTGAACTTCC [DNA-6 (3'P blunt)],binding result,[1]; [5],no binding
GGAAGTTCTTTTGAACTTCCTTGG [DNA-7 (3' overhang)],binding result,[1]; folded or branched DNA,no binding
CGGTCGATCGTAAGATCGACCGTGCGCTGGAGCTTGCTCCAGCGC [DNA-13 (gap)],binding result,[1]; folded or branched DNA,no binding
CGGTCGATCGTAAGATCGACCGGCGCTGGAGCTTGCTCCAGCGC [DNA-11 (nick)],binding result,"[1]; clear shift only with DNA-1, folded or branched DNA",no binding
GCTAGGAAGTTCTTTTGAACTTCC [DNA-8 (5' overhang)],binding result,[1]; folded or branched DNA,no binding
CGGTCGATCGTAAGATCGACCGGCGCTGGAGCTTGCTCCAGCGC [DNA-12 (3'P nick)],binding result,"[1]; clear shift only with DNA-1, 3'-phosphate, folded or branched …",no binding
